# Potato spindle tuber viroid, stem 3: variant abundance in plants

Data from the supplement of Wu et al. 2024, doi:10.1371/journal.ppat.1012142.

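Three N. benthamiana plants were inoculated with the whole mutant pool. Samples came from the inoculated region at 5 days, the leaf margin at 10 and upper systemic leaves at 12.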

The pool varies stem 3 of the PSTVd intermediate strain in the pattern GUGGUUCCGNANNCNN; wild type is GUGGUUCCGGAACCGC (upper and lower strand joined, each 5' to 3', the first 8 letters being the upper strand).

Numbers give reads per thousand; 0 = not seen among the reads, higher = more abundant. Each value is the mean of three plants. "Pool" is the share in the plasmid pool used as inoculum, on the same scale. The inoculated region was read from the minus strand, the other sites from the plus strand. IR is the inoculated region, LM the leaf margin, Sys the systemic leaves. Wild type was 17.3 per thousand in the pool and the most common sequence in every sample (inoculated region 330, 345, 235; leaf margin 794, 766, 816; systemic leaves 830, 792, 869). With 27,691-54,225 reads a sample, very low values are single reads. Sequences that differ at fixed positions probably stem from PCR or sequencing errors, and defective variants can be carried along by functional ones.

| sequence | pool | IR | LM | Sys |
|---|---|---|---|---|
| GUGGUUCCGGAGGCUC | 0.677 | 0.292 | 0.0106 | 0 |
| GUGGGUCCGGAAGCGA | 0.0154 | 0 | 0 | 0 |
| UUGUUUCCGGACUCCA | 0.0154 | 0 | 0 | 0 |
| GUUGUUCCGUAACCGC | 0.0154 | 0.0179 | 0 | 0.0577 |
| GUGGUUCCGUACGCAA | 0.769 | 0.281 | 0.0120 | 0 |
| GUGGUUCCGGAGCCAC | 0.877 | 1.18 | 0.285 | 0 |
| GUGGUUCCGUAACCCG | 0.923 | 0.332 | 0.0215 | 0 |
| GUGGUUCCGGAUCCUC | 0.816 | 0.306 | 0 | 0.00615 |
| GUGGUUCCGGAACCGU | 0.923 | 33.7 | 16.2 | 15.1 |
| GUGGUUCCGGAGACCU | 0.800 | 1.04 | 0.0670 | 0 |
| GUGGUUCCGCAAACUA | 0.631 | 0.292 | 0 | 0 |
| GUGGUUCCGCAAUCUG | 0.708 | 0.392 | 0.0241 | 0 |
| GUGGUUCCGAACGCAA | 0.785 | 1.39 | 0.470 | 0 |
| GUGGUUCCGGAUCCAA | 2.43 | 1.19 | 0.144 | 0.0349 |
| GUGGUUCCGGAGACCA | 0.877 | 0.351 | 0.0120 | 0 |
| GUGGUUCCGAAUCCGC | 0.893 | 0.803 | 0.208 | 0 |
| GUGGUUCCGGAAGCUU | 0.769 | 0.340 | 0.0120 | 0 |
| GUUGUUCCGGAGCCCC | 0.0154 | 0 | 0 | 0 |
| GUGGUUCCGGAACCUC | 0.939 | 0.852 | 0.651 | 0.760 |
| GUGGUUCCGGAGGCUA | 0.616 | 0.415 | 0.0189 | 0 |
| GUGGUUCCGAAAGCAC | 0.769 | 0.763 | 0.0963 | 0 |
| GUGGUUCCGAAGACAC | 0.816 | 0.912 | 0.0212 | 0 |
| GUGGUUCCGUAGACAU | 0.785 | 0.607 | 0.437 | 0 |
| GUGGUUCCGUAUGCUC | 1.66 | 0.556 | 0.0453 | 0.0311 |
| GUGGUUCCGUAACCAC | 0.769 | 0.362 | 0.0321 | 0 |
| GUGGUUCCGAAGUCGC | 0.846 | 0.752 | 0.360 | 0 |
| GUGGUUCCGAACCCGG | 0.739 | 0.358 | 0.0120 | 0 |
| GUGGUUCCGAAAUCAC | 0.708 | 1.16 | 0.530 | 0 |
| GUGGUUCCGUAUUCCG | 0.800 | 0.337 | 0.0106 | 0 |
| GUGGUUCCGCAGACGC | 0.877 | 0.359 | 0 | 0.0184 |
| GUGGUUCCGAACCCCG | 0.985 | 0.314 | 0.0215 | 0 |
| GUGGUUCCGGAUACUG | 0.877 | 0.276 | 0 | 0 |
| GUGGUUCCGGACUCAG | 2.23 | 1.25 | 0.278 | 0.0369 |
| GUGGUUCCGUAGUCGA | 1.39 | 1.13 | 0.0226 | 0.00811 |
| GUGGUUCCGGACGCUA | 0.985 | 0.233 | 0 | 0 |
| GUGGUUCCGGAUUCUU | 0.785 | 0.642 | 0.169 | 0 |
| GUGGGUCCGAAUCCCA | 0.0154 | 0 | 0 | 0 |
| GUGGUUCCGGACCCAU | 1.05 | 0.915 | 0.0212 | 0 |
| GUGGUUCCGUAAUCCA | 1.17 | 0.447 | 0.0120 | 0 |
| GUGGUUCCGAACUCUG | 0.985 | 0.840 | 0.506 | 0 |
| GUGUUUCCGGAACCGA | 0.0154 | 0.0161 | 0.00944 | 0.0309 |
| GUGGUUCCGUACCCGC | 0.800 | 0.349 | 0.00944 | 0.00615 |
| GUGGUUCCGCAUCCGC | 0.939 | 0.209 | 0 | 0.00621 |
| GUGGUUCCGGACACCA | 0.816 | 0.412 | 0 | 0 |
| GUGGUUCCGAAGACUU | 1.11 | 0.914 | 1.03 | 1.22 |
| GUGGUUCCGCACCCCG | 0.877 | 0.296 | 0.0215 | 0 |
| GUGGUUCCGAAUCCUC | 0.785 | 0.340 | 0.0332 | 0 |
| GUGGUUCCGGACGCUC | 1.49 | 0.797 | 0 | 0.00621 |

The last 3 entries again:

GUGGUUCCGCACCCCG (pool 0.877) read IR 0.296; LM 0.0215; Sys 0.
GUGGUUCCGAAUCCUC (pool 0.785) read IR 0.340; LM 0.0332; Sys 0.
GUGGUUCCGGACGCUC (pool 1.49) read IR 0.797; LM 0; Sys 0.00621.